Measurements reported in the supplement of paper PMC9931576.
Human monoclonal antibodies against the spike receptor-binding domain (heavy:light variable regions). IC50 against pseudoviruses bearing the spike of naturally observed variants; lower = stronger; >10 µg/ml means not reached at the top dose. No active / inactive call. The stated detection limit is 0.0005 µg/ml; values near or below 0.001 µg/ml lie at the floor of the assay.

B1: BD56-410 (protein)
chain 1: EVQVVESGGGLVQPGGSLRLSCAASGFSFSRFDMIWVRRAPGKGLEWVSYIGGSSSVTYYADSVKGRFTISRDNAMKSVYLQMNSLRAEDTAVYYCARDGLPGVGEMFDTWGQGTLVSVSS
chain 2: SYVLTQPPSVSVAPGQTAWITCGGNKIGSKSVQWYHQKPGQAPMLVIYYDTDRPSGIPERFSGSNSGNTATLAISRVEAGDEADYYCQVWDSDSDHVVFGGGTKLTVL
B2: BD56-420 (protein)
chain 1: EVQVVESGGGLVQPGGSLRLSCAASGFSFSRYEMNWVRQAPGKGLEWVSYISSSGDIIYYADSVKGRFTVSRDNAKKSLFLQMNSLRAGDTAVYYCARDGLPGFGEILDYWGRGTLVTVSS
chain 2: SYVLTQPPSVSVAPGKTAWITCGGNNTGAKSVYWYQQKPGQAPVLVIYYDSDRPSGIPERFSGSNSGNTATLTVSRVEAGDEADYYCQVWDSGSDHMVFGGGTKLTVL
B3: BD56-408 (protein)
chain 1: QVHLEQSGAEVKKPGSSVKVSCTGSGDTFNKYAVSWVRQAPGQGLEWMGGVIPVIGIPNYTQKFQDRLTISADESTSTVYMELSSLRSGDTAVYFCAGGGSVVVAADFYLEYWGRGTLVTVSS
chain 2: DIQMTQSPSTLSAYVGDRVTITCRASQSIGSWLAWYQQKPGRVPKLLINQASTLGSGVPSRFSGSGSGTEFTLTISSLQPDDFATYYCQQYKTYPTFGQGTRLDIK
B4: BD56-426 (protein)
chain 1: QVQLEQSGAEVKKPGSSVKVSCKASGGTFSSYAISWVRQAPGQGLEWMGGIIPILGITYYAQKLKGRVTITAGEGTLTAYMELSSLRSEDTAVYYCATQPSTNPASYSYYYYMDVWGKGTTVTVSS
chain 2: QSALTQPASVSGSPGQSITISCTGTSSDVGSYNLVSWYHQHPGKAPKVIIYDVSKRPSGVSNRFSGSKSGNTASLTISGLQAEDEADYYCCSYAGSSTWVFGGGTKLTVL
B5: BD56-430 (protein)
chain 1: QVQLVESGGGGVQPGRSLRLSCAASGFTFRSYAMHWVRQAPGKGLEWVALIWNDGSKEYYVDSVKGRFTISRDNSKNTLYLQMNSLRAEDTAVYYCAREGIAVGSGGDDAFDIWGQGTMVTVSS
chain 2: DIHMTQSPSSLSASVGDRVTITCRASQSVSKFLNWYQQKPGRAPKLLIYAASSLQSGVPSRFSGGESGTDFILSISSLQPEDFATYYCQQTYSPPYSFGQGTKLEI
B6: BD56-425 (protein)
chain 1: EVQLLESGGGLIQPGGSLRLSCAASGFMFTTDAMSWVRQAPGKGLEWVSYISGSGTKTYYADSVRGRFTISRDNSKNTLYLQMNSLRADDTAIYYCAKDVGLLWFGDLPANWFDPWGQGTLVTVSS
chain 2: DIQMTQSPSSLSASVGDRVTITCRASQGISNSLAWYQQKPREAPKLLLYAASTLESGVPSRFSGSGSGTDFTLTISSLQAEDFATYYCQQYYSPPPRTFGQGTRLEIK

biological target: SARS-CoV-2 Omicron BA.1 spike pseudovirus; test: pseudovirus neutralization IC50; higher = weaker neutralization
Method: (§1)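 Single-round VSV luciferase pseudovirus mixed with antibody dilutions for 1 h and put on Huh-7 cells for about a day; IC50 from the dose curve.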

Binder	pseudovirus neutralization IC50 [µg/mL]
B1	0.2
B2	0.503
B3	0.295
B4	0.0121
B5	0.0828
B6	2.2

biological target: SARS-CoV-2 Omicron BA.2 spike pseudovirus; test: as above
Method: as §1

Binder	pseudovirus neutralization IC50 [µg/mL]
B1	0.188
B2	1.36
B3	0.254
B4	0.0236
B5	0.0144
B6	1.59

biological target: SARS-CoV-2 Omicron BA.2.75 spike pseudovirus; test: as above
Method: as §1

Binder	pseudovirus neutralization IC50 [µg/mL]
B1	0.207
B2	1
B3	1.06
B4	0.018
B5	0.102
B6	0.00642

biological target: SARS-CoV-2 Omicron BA.5 spike pseudovirus; test: as above
Method: as §1

Binder	pseudovirus neutralization IC50 [µg/mL]
B1	> 10
B2	> 10
B3	> 10
B4	> 10
B5	> 10
B6	> 10

biological target: SARS-CoV-2 Omicron BQ.1.1 spike pseudovirus; test: as above
Method: as §1

Binder	pseudovirus neutralization IC50 [µg/mL]
B1	> 10
B2	> 10
B3	> 10
B4	> 10
B5	> 10
B6	> 10

biological target: SARS-CoV-2 Omicron XBB spike pseudovirus; test: as above
Method: as §1

Binder	pseudovirus neutralization IC50 [µg/mL]
B1	1.9
B2	> 10
B3	> 10
B4	> 10
B5	0.566
B6	> 10

biological target: SARS-CoV-2 early D614G spike pseudovirus; test: as above
Method: as §1

Binder	pseudovirus neutralization IC50 [µg/mL]
B1	0.143
B2	0.13
B3	0.00126
B4	0.001
B5	0.00243
B6	0.00385
